Source: US10085445B2, “Biocorrosion inhibitor for metal” (KURARAY CO., LTD., priority 2013, dated 2018)

Test system: activated sludge
Experiment: Biodegradability test (OECD 301C, JIS K 6950)
Details: for biodegradation ratio at 28 days (average) / biodegradation ratio at 28 days: 25° C.; for biodegradation ratio at 28 days: individual values n=2; for degradability judgement: not less than 60% = good degradable
[1] = high concentration group (100 ppm)
[2] = low concentration group (30 ppm)

O=CCCCC=O [glutaraldehyde]
biodegradation ratio at 28 days (average) [1]: 52.6% | biodegradation ratio at 28 days [1]: 52.7% and 52.5% | degradability judgement [1]: partial degradability (hardly degradable) | biodegradation ratio at 28 days (average) [2]: 78.0% | biodegradation ratio at 28 days [2]: 78.5% and 77.5% | degradability judgement [2]: good degradability

Where “and” joins values, the source holds several entries; their conditions need not be identical. Identical values can stand only once.
